Anti-infective test results gathered from many reports (values: NIAID ChemDB through PubChem).

Common to all: whole-cell or culture tests; agent: HIV-1

Two numbers with a dash give a range or band.

SMILES,changes,endpoint,strain or isolate,cell line,read by,value
CNc1nc(C(C)c2c(F)cccc2F)c(C)c(=O)[nH]1,,EC50,IIIB,MT-4,cytopathic effect / MTT,0.02 µM
CC(C)CN(C[C@@H](O)[C@H](Cc1ccccc1)NC(=O)O[C@H]1CCOC1)S(=O)(=O)c1ccc(N)cc1,SQV-resistant (PR G48V L90M),EC50,NL4-3,MT-4,cytopathic effect / MTT,0.056 µM
Cc1cn([C@H]2C[C@H](N=[N+]=[N-])[C@@H](CO)O2)c(=O)[nH]c1=O,,EC50,IIIB,MT-4,MTT / absorbance,3.81 µM
Oc1cccc(CN(CCN2CCCCC2)CC2CCCN(C3CCCC3)C2)c1,,EC50,BaL,MAGI,β-galactosidase,>10 µM
O=c1ccc(-c2cccc(C(F)(F)F)c2)c(O)c(O)c1O,,EC50,LAI,CEM + CEM-SS,RT activity,3 µM
CC(C)(C)n1cc(C(=O)O)c(=O)c2cc(I)c(Oc3ccnc(Nc4ccc(C#N)cc4)n3)cc21,,EC50,IIIB,MT-4,MTT,0.57 µM
O=c1[nH]cnc2c1ncn2[C@H]1CC[C@@H](CO)O1,RT-delta67 K103N,EC50,,MT-2,p24,1.04 µM
COc1cccc(CO[C@@H]2[C@H](O)[C@@H](O)[C@@H](OCc3cccc(OC)c3)[C@@H](Cc3ccccc3)S(=O)(=O)[C@@H]2Cc2ccccc2)c1,,EC50,IIIB,MT-2,cytopathic effect / XTT,<2 µM
CC1=C(CCC(=O)O)c2cc3nc(cc4[nH]c(cc5[nH]c(cc1n2)c(C)c5C(O)CO)c(C)c4C(O)CO)C(C)=C3CCC(=O)O,,EC50,IIIB,MT-2,cytopathic effect,9.81 ± 1.79 µM
Cc1cn([C@H]2C[C@H](N=[N+]=[N-])[C@@H](COC(N)=O)O2)c(=O)[nH]c1=O,,EC50,899A,MT-4,p24 / antigen / absorbance,3.2 µM
Cc1cn([C@H]2C[C@H](N=[N+]=[N-])[C@@H](CO)O2)c(=O)[nH]c1=O,,EC50,IIIB,PBL,p24,0.0374 µM
Cc1cnc(Nc2ccc(C#N)cc2)nc1C(O)c1ccc2ccccc2c1,K103N/Y181C,EC50,,MT-4,MTT,>6.1 µM
COc1ccc(CN(CCN2CCCCC2)CC2CCCN(C3CCCC3)C2)cc1O,,EC50,LAI,MAGI,β-galactosidase,5.2 µM
Nc1ccn([C@H]2CC[C@@H](CO)O2)c(=O)n1,,EC50,HE,MT-4,cytopathic effect / MTT,0.019 µM
O=C(O)[C@@H](C1CCCCC1)N1C[C@H](CN2CCC(CCCc3ccccc3)CC2)[C@@H](c2ccccc2)C1,,EC50,BaL,PBMC,,0.077 µM
CC(=O)Nc1cccc(-c2ccc(=O)c(O)c(O)c2O)c1,,EC50,LAI,CEM + CEM-SS,RT activity,10 µM
O=[N+]([O-])c1ccc(CO[C@@H]2[C@H](O)[C@@H](O)[C@@H](OCc3ccc([N+](=O)[O-])cc3)[C@@H](Cc3ccccc3)S(=O)(=O)[C@@H]2Cc2ccccc2)cc1,,EC50,IIIB,MT-2,cytopathic effect / XTT,<2 µM
CCCCn1cc(C(=O)O)c(=O)c2cc(Br)c(Oc3ccnc(Nc4ccc(C#N)cc4)n3)cc21,K103N Y181C NNRTI-resistant,EC50,IIIB,MT-4,MTT,3.2 µM
O=c1[nH]cnc2c1ncn2[C@H]1CC[C@@H](CO)O1,,EC50,IIIB,PBL (resting) + PBL,RT activity,<0.1 µM
C[C@H]1/C=C/[C@@]2(C)CC[C@@H](C(C)(C)O)[C@@H]2[C@@H](O)C[C@](C)(O)/C=C/C1,,EC50,95BRRJ010 X4,PBMC,p24,<25 µM
Cc1cn([C@H]2C[C@H](N=[N+]=[N-])[C@@H](CO)O2)c(=O)[nH]c1=O,,EC50,899A,MT-4,p24 / antigen / absorbance,0.037 µM
O=c1[nH]cnc2c1ncn2[C@H]1CC[C@@H](CO)O1,,EC50,LAV,H9,p24,<10 µM
CCC(C)Nc1nc(Cc2c(F)cccc2F)c(C)c(=O)[nH]1,RT-Y181C,EC50,,MT-4,cytopathic effect / MTT,2.3 µM
CCOCn1c(Sc2cc(C)cc(C)c2)c(CC)c(=O)[nH]c1=S,,EC50,HE,MT-4,cytopathic effect / MTT,0.011 µM
CC(C)(C)NC(=O)[C@@H]1CN(Cc2cccnc2)CCN1C[C@@H](O)C[C@@H](Cc1ccccc1)C(=O)N[C@H]1c2ccccc2C[C@H]1O,,EC50,pNL4-3 luciferase reporter,,,0.0141 µM
CCCCn1cc(C(=O)O)c(=O)c2cc(I)c(Oc3ccnc(Nc4ccc(C#N)cc4)n3)cc21,,EC50,IIIB,MT-4,MTT,0.0096 µM
O=c1cc(Cc2c(F)cccc2F)nc(SC2CCCC2)[nH]1,RT-Y181C,EC50,,MT-4,cytopathic effect / MTT,5.3 µM
Cc1cn([C@H]2C[C@H](N=[N+]=[N-])[C@@H](CO)O2)c(=O)[nH]c1=O,,EC50,IIIB,H9,virus yield,>300 µg/mL
O=c1ccc(-c2ccsc2)c(O)c(O)c1O,,EC50,LAI,CEM + CEM-SS,RT activity,3 µM
CC(C)(C)NC(=O)[C@@H]1C[C@@H]2CCCC[C@@H]2CN1C[C@@H](O)[C@H](Cc1ccccc1)NC(=O)[C@H](CC(N)=O)NC(=O)c1ccc2ccccc2n1,PR-L10R M46I L63P,EC95,NL4-3,MT-4,p24,0.025 µM
CCCCNc1nc(Cc2c(F)cccc2F)c(C)c(=O)[nH]1,RT-Y181C,EC50,,MT-4,cytopathic effect / MTT,0.7 µM
CNC(=O)OC[C@H]1O[C@@H](n2cc(C)c(=O)[nH]c2=O)C[C@@H]1N=[N+]=[N-],,EC50,899A,MT-4,p24 / antigen / absorbance,50 µM
O=C(O)[C@@H](CC1CCC1)N1C[C@H](CN2CCC(CCCc3ccccc3)CC2)[C@@H](c2ccccc2)C1,,EC50,BaL,PBMC,,<0.008 µM
O=c1ccc(-c2ccc(C(F)(F)F)cc2)c(O)c(O)c1O,,EC50,IIIB,MT-4,cytopathic effect / MTT,>5 µM
CCC(C)n1cc(C(=O)O)c(=O)c2cc(I)c(Oc3ccnc(Nc4ccc(C#N)cc4)n3)cc21,K103N Y181C NNRTI-resistant,EC50,IIIB,MT-4,MTT,0.77 µM
CCCCCOC(=O)C[C@H](NP(=O)(CO[C@H](CF)COc1nccc(N)n1)Oc1ccccc1)C(=O)OCCCCC,,EC50,NL4-3,TZM-bl,luminescence,>43.21 µM
CC(C[C@H](NC(=O)COc1cccc2cnccc12)C(=O)N[C@@H](Cc1ccccc1)[C@H](O)C(=O)N1CSC[C@H]1C(=O)NC(C)(C)C)C(F)(F)F,,EC50,IIIB,MT-4,cytopathic effect / MTT,0.13 µg/mL
Cc1cn([C@H]2C[C@H](N=[N+]=[N-])[C@@H](CO)O2)c(=O)[nH]c1=O,,EC50,IIIB,MT-4,MTT,0.02 µg/mL
CCCCNc1nc(C(C)c2c(F)cccc2F)cc(=O)[nH]1,RT-Y181C,EC50,,MT-4,cytopathic effect / MTT,0.6 µM
O=c1[nH]c(=O)n([C@H]2C[C@H](O)[C@@H](CO)O2)cc1C12B3B4B5B6B(B3B1B42)B1B5C61,,EC90,,PBMC,cytopathic effect / MTT,189 µM
Cc1cc(C(O)c2ccc3ccccc3c2)nc(Nc2ccc(C#N)cc2)n1,K103N/Y181C,EC50,,MT-4,MTT,>31.2 µM
N#Cc1ccc(Nc2nccc(Oc3cc4c(cc3Br)c(=O)c(C(=O)O)cn4C3CCCCC3)n2)cc1,K103N Y181C NNRTI-resistant,EC50,IIIB,MT-4,MTT,>3.59 µM
CC(C)CN(C[C@@H](O)[C@H](Cc1ccccc1)NC(=O)[C@H](CC(N)=O)NC(=O)c1ccc2ccccc2n1)C(=O)NC(C)(C)C,PR-L10R L63P V82T,EC95,NL4-3,MT-4,p24,0.4 µM
O=S1C[C@H](OCc2ccccc2)[C@H](O)[C@@H](O)[C@@H](OCc2ccccc2)[C@H]1Cc1ccccc1,,EC50,IIIB,MT-2,cytopathic effect / XTT,10–50 µM
O=c1ccccc(-c2cncnc2)c1O,,EC50,IIIB,MT-4,cytopathic effect / MTT,>29 µM
O=S1(=O)[C@H](Cc2ccccc2)[C@H](OCc2ccccn2)[C@H](O)[C@@H](O)[C@@H](OCc2ccccn2)[C@H]1Cc1ccccc1,,EC50,IIIB,MT-2,cytopathic effect / XTT,2–10 µM
CC(C)(C)n1cc(C(=O)O)c(=O)c2cc(Br)c(Oc3ccnc(Nc4ccc(C#N)cc4)n3)cc21,K103N Y181C NNRTI-resistant,EC50,IIIB,MT-4,MTT,>23.58 µM
CCOCn1c(Sc2cc(C)cc(C)c2)c(CC)c(=O)[nH]c1=O,,EC50,RF,MT-4,cytopathic effect / MTT,0.0045 µM
CC1=C(CCC(=O)O)c2cc3nc(cc4[nH]c(cc5[nH]c(cc1n2)c(C)c5CCOC(=O)B([B]C1[B][B][B][B]1)C1[B][B][B][B]1)c(C)c4CCOC(=O)B([B]C1[B][B][B][B]1)C1[B][B][B][B]1)C(C)=C3CCC(=O)O,,EC50,IIIB,MT-2,cytopathic effect,0.36 ± 0.1 µM
CN(C)c1nc(CO[C@@H]2[C@H](O)[C@@H](O)[C@@H](OCc3csc(N(C)C)n3)[C@@H](Cc3ccccc3)S(=O)(=O)[C@@H]2Cc2ccccc2)cs1,,EC50,IIIB,MT-2,cytopathic effect / XTT,2–10 µM
Cc1c(Cc2c(F)cccc2F)nc(SCc2ccc(C(C)C)cc2)[nH]c1=O,RT-K103N,EC50,,MT-4,cytopathic effect / MTT,>62 µM
Nc1ncnc2c1ncn2[C@@H]1C=C(CO)[C@@H](O)[C@H]1O,,EC50,IIIB,MT-4,cytopathic effect / trypan blue,>0.016 µg/mL
N#C/C=C1/c2cc(S)cc([N+](=O)[O-])c2-c2c1cc(S(=O)(=O)NCc1ccccc1)cc2[N+](=O)[O-],,EC50,IIIB,C8166,p24 / ELISA,74.34 µM
Cc1ccnc2c1NC(=O)c1cccnc1N2C1CC1,RT-T69G,EC50,,MT-2,p24,0.014 µM
COc1cc(/C=C2/C(=O)N(C(=O)c3ccc(Cl)cc3)N=C2C)cc(OC)c1OC,,EC50,,CEM,cytopathic effect / XTT,>14 µM
Cn1c(CN(CCN2CCCCC2)CC2CCCN(C3CCCC3)C2)nc2ccccc21,,EC50,NL4-3,MT-4,MTT,0.6 µM
Cc1c(C(C)c2c(F)cccc2F)nc(NC(C)C)[nH]c1=O,,EC50,IIIB,MT-4,cytopathic effect / MTT,0.005 µM
CCn1cc(C(=O)O)c(=O)c2cc(Br)c(Oc3ccnc(Nc4ccc(C#N)cc4)n3)cc21,,EC50,IIIB,MT-4,MTT,0.02 µM
CCCNc1nc(C(C)c2c(F)cccc2F)c(C)c(=O)[nH]1,,EC50,IIIB,MT-4,cytopathic effect / MTT,0.006 µM
COC1=C(N)C(=O)c2nc(-c3nc(C(=O)NNC(N)=O)c(C)c(-c4ccc(OC)c(OC)c4O)c3N)ccc2C1=O,,EC50,LAV,ATH8,p24,>100 µM
Cc1c(Cc2c(F)cccc2F)nc(NC2CCCC2)[nH]c1=O,RT-Y181C,EC50,,MT-4,cytopathic effect / MTT,0.8 µM
Nc1ncnc2c1ncn2[C@@H]1C=C[C@@H](O)[C@H]1O,,EC50,IIIB,MT-4,cytopathic effect / trypan blue,>0.9 µg/mL
O=S1(=O)[C@@H](Cc2ccccc2)[C@@H](OCc2ccccc2)[C@@H](O)[C@H](O)[C@H](OCc2ccccc2)[C@@H]1Cc1ccccc1,,EC50,IIIB,MT-2,cytopathic effect / XTT,10–50 µM
CCOCn1c(Cc2cc(C)cc(C)c2)c(CC)c(=O)[nH]c1=O,,EC50,A012D,MT-4,cytopathic effect / MTT,0.0012 µM
NC(=O)[C@H](Nc1ccccc1[N+](=O)[O-])c1c(Cl)cccc1Cl,RT-I135T Q207E T215F K219Q,EC50,AZT-resistant (RT I135T Q207E T215F K219Q),,p24,0.073 µg/mL
Cc1ccc(CO[C@@H]2[C@H](O)[C@@H](O)[C@@H](OCc3ccc(C)cn3)[C@@H](Cc3ccccc3)S(=O)(=O)[C@@H]2Cc2ccccc2)nc1,,EC50,IIIB,MT-2,cytopathic effect / XTT,2–10 µM
Cc1cn([C@H]2C[C@H](N=[N+]=[N-])[C@@H](CO)O2)c(=O)[nH]c1=O,,EC50,BZ X4,PBL (resting) + PBL,RT activity,4 µM
Nc1ncnc2c1ncn2[C@H]1CC[C@@H](CO)O1,,EC50,LAV,H9,p24,<10 µM

Again, the opening 6 rows:

SMILES	changes	endpoint	strain or isolate	cell line	read by	value
CNc1nc(C(C)c2c(F)cccc2F)c(C)c(=O)[nH]1		EC50	IIIB	MT-4	cytopathic effect / MTT	0.02 µM
CC(C)CN(C[C@@H](O)[C@H](Cc1ccccc1)NC(=O)O[C@H]1CCOC1)S(=O)(=O)c1ccc(N)cc1	SQV-resistant (PR G48V L90M)	EC50	NL4-3	MT-4	cytopathic effect / MTT	0.056 µM
Cc1cn([C@H]2C[C@H](N=[N+]=[N-])[C@@H](CO)O2)c(=O)[nH]c1=O		EC50	IIIB	MT-4	MTT / absorbance	3.81 µM
Oc1cccc(CN(CCN2CCCCC2)CC2CCCN(C3CCCC3)C2)c1		EC50	BaL	MAGI	β-galactosidase	>10 µM
O=c1ccc(-c2cccc(C(F)(F)F)c2)c(O)c(O)c1O		EC50	LAI	CEM + CEM-SS	RT activity	3 µM
CC(C)(C)n1cc(C(=O)O)c(=O)c2cc(I)c(Oc3ccnc(Nc4ccc(C#N)cc4)n3)cc21		EC50	IIIB	MT-4	MTT	0.57 µM

Blank or dashed fields: not listed here. Lines come from different laboratories, so protocols vary. ECn is the concentration giving n% inhibition of infection, replication or growth.